Drawing on patent US5605926A, this text covers IC50 for 10 molecules.

By UniProt entry, the sequences of proteins in these tests, tags left out. Residues count along the entry.
UniProt P04584, 514-612 limits assumed: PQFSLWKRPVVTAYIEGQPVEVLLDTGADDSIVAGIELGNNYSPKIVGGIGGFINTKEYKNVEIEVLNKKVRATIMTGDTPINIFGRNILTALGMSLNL

pIC50: −log10 of the molar value. Read-outs that look alike come from different tables or passages of the source.

Experiment [1] concerns the target HIV-2 protease (Human immunodeficiency virus type 2 subtype A, UniProt P04584). The experiment is described as follows: HIV protease enzyme assay (RP-HPLC), HIV-2. As to conditions: read-out: IC50 (RP-HPLC) HIV-2, purified HIV protease, synthetic Gag cleavage-site peptide. As to the method: (§1) The results of the examples shown below were determined by the HIV test system described in the following literature references [cf. Hansen, J., Billich, S., Schulze, T., Sukrow, S. and Molling, K. (1988), EMBO Journal, Vol. 7, No. 6, pp. 1785-1791]: Purified HIV protease was incubated with synthetic peptide which imitated a cleavage site in the Gag precursor protein and represented an in vivo cleavage site of the HIV protease. The resulting cleavage products of the synthetic peptide were analyzed by means of reverse phase high performance liquid chromatography (RP-HPLC). The IC50 values given relate to the substance concentration which causes a 50% inhibition of the protease activity under the abovementioned test conditions.
(§2) Enzyme assay, HIV-1/HIV-2

The subject of experiment [2] is HIV. The experiment is described as follows: HIV infection in cell culture, H-9. As to conditions: read-out: IC50 [H-9]; HIV-infected H-9 cells; 50% suppression of virus-induced syncytia.
Experiment [3] relates to HIV. The experiment is described as follows: HIV infection in cell culture, syncytia formation, PBL. As to conditions: read-out: IC50 [PBL]; HIV-infected normal human blood lymphocytes; 50% suppression of virus-induced syncytia.
Experiment [4] has as its target HIV-1 protease (Human immunodeficiency virus type 1 group M subtype B, UniProt P04585). The experiment is described as follows: HIV protease enzyme assay (RP-HPLC), HIV-1. As to the method:
as §1, §2

[5] abbreviates: read-out: IC50 (RP-HPLC) HIV-1, purified HIV protease, synthetic Gag cleavage-site peptide.
[6] abbreviates: read-out: IC50 (RP-HPLC) HIV-1, purified HIV protease, synthetic Gag cleavage-site peptide, tested form: 2HCl.

Take `CC(C)[C@H](NC(=O)[C@H](Cc1cccc2ccccc12)CS(=O)(=O)C(C)(C)C)C(=O)N[C@@H](Cc1ccccc1)C(O)CN1CCC[C@H]1C(F)(F)F` (stereo partly shown): the pIC50 in experiment [1] is 9.00; in experiment [2], 6.28; in experiment [3], 6.85.

As to `CC[C@H](C)[C@H](NC(=O)[C@H](Cc1cccc2ccccc12)CS(=O)(=O)C(C)(C)C)C(=O)N[C@@H](Cc1ccccc1)C(O)CN1CCC[C@H]1C(F)(F)F` (stereo partly shown), the pIC50 is 8.00 in experiment [4] (setting [5]) and 5.85 in experiment [3].

Regarding `CC(C)[C@H](NC(=O)[C@@H](N)Cc1ccccc1)C(=O)N[C@@H](Cc1ccccc1)C(O)CN1CCC[C@H]1C(F)(F)F` (stereo partly shown), in experiment [4] (setting [6]), the pIC50 was 9.00.

As for `NC(=O)C[C@H](NC(=O)c1ccc2ccccc2n1)C(=O)N[C@@H](Cc1ccccc1)C(O)CN1CCC[C@H]1C(F)(F)F` (single isomer, unassigned) [37], the pIC50 in experiment [2] was 5.60.

For the molecule `CC(C)(C)S(=O)(=O)C[C@@H](Cc1cccc2ccccc12)C(=O)N[C@@H](CC(N)=O)C(=O)N[C@@H](Cc1ccccc1)[C@H](O)C(O)CN1CCC[C@H]1C(F)(F)F` (stereo partly shown), the pIC50 in experiment [4] (setting [5]) is 8.00.

As for `CC(C)C(NCC(O)[C@H](Cc1ccccc1)NC(=O)[C@@H](NC(=O)[C@H](Cc1cccc2ccccc12)CS(=O)(=O)C(C)(C)C)C(C)C)C(F)(F)F` (stereo partly shown), the pIC50 in experiment [4] (setting [5]) was 8.00.

`CC(C)[C@H](NC(=O)[C@H](Cc1cccc2ccccc12)CS(=O)(=O)C(C)(C)C)C(=O)N[C@@H](Cc1ccccc1)C(O)CN1CCc2ccccc2C1C(F)(F)F` (stereo partly shown): the negative logarithm of the IC50 (pIC50) in experiment [4] (setting [5]) was 9.00.

`CC(C)[C@H](NC(=O)[C@H](Cc1cccc2ccccc12)CS(=O)(=O)C(C)(C)C)C(=O)N[C@@H](Cc1ccccc1)C(O)CN1CCCC[C@H]1C(F)(F)F` (stereo partly shown): in experiment [2], the pIC50 is 5.96.

As for `CC(C)[C@H](NC(=O)[C@H](Cc1ccccc1)NC(=O)[C@H](CO)NC(=O)OC(C)(C)C)C(=O)N[C@@H](Cc1ccccc1)C(O)CN1CCC[C@H]1C(F)(F)F` (stereo partly shown), in experiment [3], the pIC50 is 5.30.

As for `CC(C)[C@H](N)C(=O)N[C@@H](Cc1ccccc1)C(O)CN1CCC[C@H]1C(F)(F)F` (stereo partly shown), in experiment [4] (setting [6]), the pIC50 was 10.00.
